Anti-infective test results gathered from many reports (values: NIAID ChemDB through PubChem).

Shared fields: growth or infection tests; agent: HIV-1; cells: PBMC; endpoint: EC50

ECn: concentration that inhibits the pathogen or its effect by n%.

| compound | strain | mutations | method | value |
|---|---|---|---|---|
| CC(C)(C)OC(=O)N1CCC(CCc2c(-c3ccc(C(F)(F)F)cc3)[nH]n(-c3nc4ccccc4[nH]3)c2=O)CC1 | NL4-3 | - | p24 / ELISA | <1 µM |
| Nc1nccc2c1ncn2[C@@H]1C[C@H](O)[C@@H](O)[C@H]1O | A012 | - | p24 | 3.48 µM |
| CCO[C@@H]1Cc2cc(C(F)(F)F)ccc2C1N1CCN(C2(C)CCN(C(=O)c3c(C)ncnc3C)CC2)C[C@@H]1C | WPS-2 | - | p24 | 0.0012 µM |
| CCCCCCCCCCCCCCCCCCOCCOP(=O)(CO[C@H](C)Cn1cnc2c(N)ncnc21)OCc1ccccc1C | - | - | luminescence | 0.0027 µM |
| COP(=O)(c1cc(C)cc(CCC#N)c1)c1c(C(N)=O)[nH]c2ccc(Cl)cc12 | NL4-3 | - | - | 0.0015 µM |
| O=c1ccn([C@H]2C=C(F)[C@@H](CO)O2)c(=O)[nH]1 | LAI | - | RT activity | >100 µM |
| Cc1noc(C)c1-c1ccc2c(c1)N(c1cc(N)c(F)cc1F)CCC2=O | NL4-3 | - | p24 / ELISA | 0.007 µM |
| CCCCCCCC(=O)Nc1nc(N)nc2c1ncn2[C@H]1CO[C@@H](COP(=O)(N[C@@H](C)C(=O)OCC)Oc2ccccc2)O1 | LAV-1 | - | RT activity | 0.42 µM |
| NC(=O)CCNC(=O)c1ccccc1SCc1ccc([N+](=O)[O-])o1 | HT/92/599 | - | XTT | 8.15 µM |
| Nc1nc2c(ncn2[C@@H]2OC[C@H](CCP(=O)(O)O)C23CC3)c(=O)[nH]1 | LAV-1 | - | RT activity | 80 µM |
| O=C(O)CN(CCN(CC(=O)O)Cc1cnc2c(O)cccc2c1)CC(=O)O | B-92US026 Primary isolate | - | RT activity | 12 µM |
| CC[C@H](C)[C@H](NC(=O)[C@@H](C[C@H](O)[C@H](CC1CCCCC1)NC(=O)CC(C)(C)C)C(C)C)C(=O)NCc1ccccn1 | IIIB | - | p24 / ELISA | <1 µM |
| Nc1nccc2c1ncn2[C@H]1CC[C@@H](CO)O1 | A018 | - | p24 | 2.5 µM |
| CC(C)(C)[Si](C)(C)O[C@H]1[C@H](CO)O[C@@H](n2ccc(N)nc2=O)C1(F)F | LAV | - | RT activity | >100 µM |
| Nc1nc2c(ccn2[C@H]2C=C[C@@H](CO)C2)c(=O)[nH]1 | IIIB | - | RT activity | 7 µM |
| Cn1cc(C(=O)O)c(=O)c2cc(N)c(N3CCN(c4nccs4)CC3)cc21 | IIIB | - | p24 | 0.032 µg/mL |
| O=C(CN1c2c(-c3ccccc3)n[nH]c2-c2ccccc2S1(=O)=O)N/N=C/c1cccc(Br)c1 | - | - | - | 6 µM |
| Cc1cc(C)cc(Cc2c(I)c(=O)[nH]c(=O)n2COCc2ccccc2)c1 | SF33 | - | p24 / ELISA | 0.003 µM |
| Nc1nccc2c1ncn2[C@@H]1C=C(CO)[C@@H](O)[C@H]1O | A018 | - | p24 | 0.016 µM |
| CC(=O)OC[C@H]1O[C@@H]2Oc3c(c(=O)n(C)c(=O)n3C)S[C@@H]2[C@@H](OC(C)=O)[C@H]1OC(C)=O | LAI | - | RT activity | 13.6 µM |
| O=c1c(CCc2ccc(F)cc2)c(-c2ccc(C(F)(F)F)cc2)[nH]n1-c1cc(C(F)(F)F)[nH]n1 | NL4-3 | - | p24 / ELISA | ≤0.01 µM |
| Nc1nc2c(ncn2[C@@H]2C=C(F)[C@H](CO)O2)c(=O)[nH]1 | LAI | - | RT activity | >100 µM |
| C/C=C/CSc1cc(NC(=S)c2ccsc2C)ccc1Cl | WEJO | - | p24 | 0.2 µM |
| Cc1cn([C@H]2C[C@H](N=[N+]=[N-])[C@@H](CO)O2)c(=O)[nH]c1=O | IIIB | - | ELISA | 0.00707 µM |
| CN(C)c1ccc(/C=N/NC(=O)CN2c3c(-c4ccccc4)n[nH]c3-c3ccccc3S2(=O)=O)cc1 | - | - | - | >100 µM |
| COc1cc(OC)c(C(=O)OCc2nc3ccccc3nc2C)cc1OC | 89BZ167 | - | RT activity | >100 µM |
| Cc1c(-c2c([C@H](OC(C)(C)C)C(=O)O)cnc3ccccc23)cc(F)c2c1CCCO2 | - | - | - | 0.021 µM |
| COc1ccccc1CCNC(=S)Nc1ccccn1 | IIIB | - | p24 | 0.01 µM |
| Nc1ncc(F)c(Cc2ccc3c(c2)NC(=O)N[C@]3(C#CC2CC2)C(F)(F)F)n1 | - | - | GFP | 0.0828 µM |
| Nc1nc(=O)n([C@H]2C=C[C@@H](CO)O2)cc1F | XM-ABC-resistant | RT-K65R L74V M184V Y115F | p24 | <6.2 µM |
| COc1ccc(/C=N/NC(=O)CN2c3c(-c4ccccc4)n[nH]c3-c3ccccc3S2(=O)=O)c(OC)c1 | - | - | - | 41 µM |
| Nc1ccn([C@@H]2O[C@@H](CO)[C@H](O)C2(F)F)c(=O)n1 | LAI | - | RT activity | >100 µM |
| COC(=O)[C@H](C)NP(=O)(OC[C@@H]1C=C[C@H](n2cc(C)c(=O)[nH]c2=O)O1)Oc1ccc(OC)cc1 | IIIB | - | RT activity | 0.033 µM |
| CCCCCCCC/C=C\CCCCCCCC(=O)Nc1nc(N)nc2c1ncn2[C@H]1CO[C@@H](COP(=O)(N[C@@H](C)C(=O)OCC)Oc2ccccc2)O1 | LAV-1 | - | RT activity | 0.77 µM |
| Cn1c2c(c(=O)n(C)c1=O)S[C@H]1[C@@H](O2)O[C@H](CO)[C@@H](O)[C@@H]1O | LAI | - | RT activity | >100 µM |
| COc1cccc(OC)c1C(=O)OCc1nc2ccccc2nc1C | BaL | - | RT activity | 24.3 µM |
| CO.COc1ccccc1CCNC(=S)[N-]c1ccccn1.COc1ccccc1CCNC(=S)[N-]c1ccccn1.[O]=[V+2] | IIIB | - | p24 | 0.12 µM |
| NC(=O)c1cn([C@@H]2CS[C@H](CO)O2)cn1 | LAV | - | RT activity | >100 µM |
| Nc1ncnc2c1ncn2[C@H]1C[C@@H](CO)C=C1F | - | RT-M184V | RT activity | 75.3 µM |
| Nc1nc(=O)n([C@H]2O[C@@H](CO)C=C2F)cc1F | LAV | - | RT activity | 0.46 µM |
| Nc1nccc2c1ncn2[C@@H]1O[C@H](CO)[C@@H](O)[C@H]1O | 18199 unpaired | - | p24 | 0.908 µM |
| C[C@H]1[C@H](O)[C@@H](C)/C=C/C=C/C=C/C=C/C=C/C=C/C=C/[C@H](O[C@@H]2O[C@H](C)[C@@H](O)[C@H](N)[C@@H]2O)C[C@@H]2O[C@](O)(C[C@@H](O)C[C@@H](O)CC[C@H](O)[C@@H](O)C[C@@H](O)CC(=O)O[C@H]1C)C[C@H](O)[C@H]2C(=O)O | 93BR019 CLADE BF X4 (SI) | - | p24 / RT activity | 1.6 µM |
| NC(=O)c1cnn([C@@H]2C=C(CO)[C@@H](O)[C@H]2O)c1 | LAI | - | - | 24 µM |
| CCCc1cc(=O)oc2c3c(c4c(c12)OC(C)(C)CC4)O[C@@H](C)[C@H](C)[C@@H]3O | CLADE B | - | RT activity | 0.4 µM |
| Cc1ccc(-c2ccc3c(c2)C=C(C(=O)Nc2ccc(C[N+](C)(C)C4CCOCC4)cc2)CCC3)cc1 | Du368 CLADE C | - | p24 | <1 µM |
| CCOC(=O)[C@H](C)NP(=O)(OC[C@@H]1OC[C@H](n2cnc3c(N)nc(N)nc32)O1)Oc1ccccc1 | LAV-1 | - | RT activity | 0.25 µM |
| CC(=O)N1CCC(C(=O)N(CCCN2CCC(Cc3ccc(C(N)=O)cc3)CC2)c2ccc(C)c(Cl)c2)CC1 | R5-06 Clinical isolate | - | p24 | 0.01347 µM |
| O=c1[nH]cnc2c1ncn2[C@H]1C=C(F)[C@@H](CO)O1 | LAI | - | RT activity | >100 µM |
| Cc1nc2ccccc2nc1COC(=O)c1ccc(O)cc1O | BaL | - | RT activity | >100 µM |
| Cc1cn([C@H]2C=C(F)[C@@H](CO)O2)c(=O)[nH]c1=O | LAI | - | RT activity | >100 µM |
| Nc1nc(NC2CC2)c2ncn([C@H]3C=C[C@@H](CO)C3)c2n1 | NL-XM WT | - | p24 | <4.5 µM |
| COc1ccc(/C=N/NC(=O)CN2c3c(-c4ccccc4)n[nH]c3-c3ccccc3S2(=O)=O)cc1OC | - | - | - | 46.6 µM |
| O=C(O)CCC(CCC(=O)O)(CCC(=O)O)NC(=O)CCC(CCC(=O)NC(CCC(=O)O)(CCC(=O)O)CCC(=O)O)(CCC(=O)NC(CCC(=O)O)(CCC(=O)O)CCC(=O)O)NC(=O)CCCOC(=O)C1(C(=O)OCCCC(=O)NC(CCC(=O)NC(CCC(=O)O)(CCC(=O)O)CCC(=O)O)(CCC(=O)NC(CCC(=O)O)(CCC(=O)O)CCC(=O)O)CCC(=O)NC(CCC(=O)O)(CCC(=O)O)CCC(=O)O)C2c3cc4c5c6c3-c3c(cc7c8c3C6C3c6c-5c(cc5ccc9cc(c-8c3c9c65)C7)C4)C21 | - | AZT-resistant (RT 215/41) | cytopathic effect | 0.97 µM |
| CC(C)(CS(=O)(=O)[O-])[NH2+]C(=O)C(CC(F)(OC(F)(F)C(F)(OC(F)(F)C(F)(OC(F)(F)C(F)(F)C(F)(F)F)C(F)(F)F)C(F)(F)F)C(F)(F)F)C(F)(OC(F)(F)C(F)(OC(F)(F)C(F)(OC(F)(F)C(F)(F)C(F)(F)F)C(F)(F)F)C(F)(F)F)C(F)(F)F | BaL | - | p24 | 18 µg/mL |
| C[C@]1(CO)CO[C@H](n2cnc3c(=O)[nH]c(F)nc32)C1 | LAV | - | RT activity | 2.55 µM |
| Nc1ccn([C@H]2S[C@@H](CO)C=C2F)c(=O)n1 | BRU | - | RT activity | <5 µM |
| Cc1cccc(C(=O)OCc2nc3ccccc3nc2C)c1O | BaL | - | RT activity | >100 µM |
| Nc1ncnc2c1ncn2[C@H]1O[C@@H](CO)[C@H](O)C1(F)F | LAV | - | RT activity | 3.4 µM |
| Cn1cc(C(=O)O)c(=O)c2cc(N)c(N3CCN(c4nc5ccccc5o4)CC3)cc21 | IIIB | - | p24 | 0.043 µg/mL |
| COc1cc(-c2ccc(Nc3ccccc3C(=O)O)c(OC)c2)ccc1Nc1ccccc1C(=O)O | BaL | - | RT activity | 1.37 µM |
| COC(=O)[C@H](C)NP(=O)(OC[C@@H]1C=C[C@H](n2cc(C)c(=O)[nH]c2=O)O1)Oc1ccc(Br)cc1 | IIIB | - | p24 | 0.022 µM |
| COc1ccc(C(=O)OCc2nc3ccccc3nc2C)c(OC)c1OC | 89BZ167 | - | RT activity | 87.9 µM |
| C=C1CN(S(=O)(=O)c2ccc(C)cc2)CCCN(CC2CCCCC2)CCCN(S(=O)(=O)c2ccc(C)cc2)C1 | BaL | - | p24 | 1.12 µM |
| Nc1nccc2c1ncn2[C@@H]1C[C@H](CO)[C@@H](O)[C@H]1O | A012 | - | p24 | 0.14 µM |
| O=C(CN1c2c(-c3ccccc3)n[nH]c2-c2ccccc2S1(=O)=O)N/N=C/c1ccc(Cl)cc1 | - | - | - | 6.5 µM |
| Clc1cc(CN2CCCNCCNCCCNCC2)cc(Cl)n1 | R5 clinical isolate #14 | - | p24 | 2.8 µM |
| Nc1ncnc2c1ncn2[C@@H]1OC[C@H](CCP(=O)(O)O)C12CC2 | LAV-1 | - | RT activity | 49.2 µM |
| CC(C)(C)C(=O)SCCOP(=O)(OCCSC(=O)C(C)(C)C)OC[C@H]1CC[C@@H](n2cnc3c(N)ncnc32)O1 | LAV | - | - | 0.002 µM |
| Cc1cn([C@H]2O[C@@H](CO)[C@H](O[Si](C)(C)C(C)(C)C)C2(F)F)c(=O)[nH]c1=O | LAV | - | RT activity | >100 µM |
| CC(=O)O[C@@H]1[C@@H](OC(C)=O)[C@H](C)O[C@@H]2Oc3[nH]c(=O)[nH]c(=O)c3S[C@@H]21 | LAI | - | RT activity | 41.4 µM |
| CCCc1cc(=O)oc2c3c(c4c(c12)OC(C)(C)C=C4)O[C@H](C)C[C@@H]3O | 1018a Clinical isolate | - | p24 | 3.51 µM |
| CC1(C)Oc2ccc3ccc(=O)oc3c2[C@@H](OC(=O)C23CCC(C)(C(=O)O2)C3(C)C)[C@H]1OC(=O)C12CCC(C)(C(=O)O1)C2(C)C | IIIB | - | p24 / ELISA | 0.029 µM |

7 of the rows above, restated:

compound | strain | mutations | method | value
Cc1noc(C)c1-c1ccc2c(c1)N(c1cc(N)c(F)cc1F)CCC2=O | NL4-3 | - | p24 / ELISA | 0.007 µM
Nc1ccn([C@H]2S[C@@H](CO)C=C2F)c(=O)n1 | BRU | - | RT activity | <5 µM
COC(=O)[C@H](C)NP(=O)(OC[C@@H]1C=C[C@H](n2cc(C)c(=O)[nH]c2=O)O1)Oc1ccc(OC)cc1 | IIIB | - | RT activity | 0.033 µM
COc1ccc(C(=O)OCc2nc3ccccc3nc2C)c(OC)c1OC | 89BZ167 | - | RT activity | 87.9 µM
Nc1nc(NC2CC2)c2ncn([C@H]3C=C[C@@H](CO)C3)c2n1 | NL-XM WT | - | p24 | <4.5 µM
Nc1nccc2c1ncn2[C@H]1CC[C@@H](CO)O1 | A018 | - | p24 | 2.5 µM
CC(=O)OC[C@H]1O[C@@H]2Oc3c(c(=O)n(C)c(=O)n3C)S[C@@H]2[C@@H](OC(C)=O)[C@H]1OC(C)=O | LAI | - | RT activity | 13.6 µM

Lines come from different laboratories, so protocols vary. An empty or dashed field is not shown.